Measured values published in patent US5145951A (priority 1990, dated 1992).

Assay: general procedure: solution-phase peptide synthesis; morpho-CDI/HOBt; DCC/HOBT; BOP; isobutyl chloroformate

Row | Substance | step yield (coupling step) [%] | step yield (late stage modification step) [%]
1 | Boc-[Aib]SFV-OMe | 72 | –
2 | Boc--AiB--Ser--Phe--Val--OH | – | 84

Non-standard residues stand in square brackets, D forms with d. *: point of attachment. Boc = CC(C)(C)OC(=O)*; Aib = CC(C)(N)C(=O)O
